Anti-infective test results gathered from many reports (values: NIAID ChemDB through PubChem).

Shared fields: target-level tests; agent: Pneumocystis carinii; target: Dihydrofolate reductase; read-out: IC50

ICn: concentration for n% inhibition.

smiles	result
CN(Cc1cnc2nc(N)nc(N)c2n1)c1c(F)cc(C(=O)N[C@H](CCC(=O)O)C(=O)O)cc1F	0.00051 µM
Cc1ccc2c(ccc3nc(N)nc(N)c32)c1	0.46 µM
CN(Cc1cnc2nc(N)nc(N)c2n1)c1c(Cl)cc(C(=O)N[C@@H](CCC(=O)O)C(=O)O)cc1Br	0.00021 µM
Nc1nc(N)c2cc(Cl)ccc2n1	0.28–3.6 µM
COc1cc(C2C=c3c(c4c([nH]c3=O)=NC(=N)N=C4N)C2)cc(OC)c1OC	3.1 µM
Nc1nc(N)c2cc(CO)cnc2n1	>104 µM
Nc1nc(N)c2c(n1)CCCc1ccc(Cl)cc1-2	9.6 µM
CN(Cc1cnc2nc(N)nc(N)c2n1)c1ccc(C(=O)N[C@@H](CCC(=O)O)C(=O)O)c2ccccc12	0.00019 µM
Nc1nc(N)c2nc(CN3c4ccccc4C=Cc4ccccc43)cnc2n1	0.21 µM
COc1cc(CN2C=c3c(c4c([nH]c3=O)=NC(=N)N=C4N)C2)cc(OC)c1OC	3.1 µM
CCc1nc(N)nc(N)c1-c1ccc(Cl)c(Cl)c1	1.08 µM
CCc1nc(N)nc(N)c1-c1ccc(Cl)c(Cl)c1	1.1 µM
CCc1nc(N)nc(N)c1-c1ccc(Cl)c(NN=NC(CCOC(C)=O)Cc2ccccc2)c1	0.17 µM
Nc1nc(N)c2c(ccc3cc(Br)ccc32)n1	0.5 µM
Cc1c(CNc2ccc(C(=O)NC(CC(=O)O)CC(=O)O)cc2)ccc2nc(N)nc(N)c12	0.28–3.6 µM
COc1cccc2c1CCN2Cc1cnc2nc(N)nc(N)c2c1C	0.25 µM
Nc1nc(N)c2c(ccc3cc(Br)ccc32)n1	3.5–4.1 µM
CN(Cc1cnc2nc(N)nc(N)c2n1)c1ccc(C(=O)N[C@H](CCC(=O)O)C(=O)O)cc1I	0.000104 µM
Nc1nc(N)c2c(ccc3c(Cl)cc(Cl)cc32)n1	19 µM
Nc1nc(N)c2c(ccc3cc(Cl)ccc32)n1	3.5–4.1 µM
COc1cc(C2Cc3c(c4c(N)nc(N)nc4[nH]c3=O)C2)cc(OC)c1OC	94.5 µM
COc1cc(CN2Cc3c(c4c(N)nc(N)nc4[nH]c3=O)C2)cc(OC)c1OC	94.5 µM
CN(Cc1cnc2nc(N)nc(N)c2n1)c1c(Cl)cc(C(=O)N[C@@H](CCC(=O)O)C(=O)O)cc1Cl	0.000035 µM

2 of the rows above, restated:

{"smiles": "Nc1nc(N)c2c(ccc3cc(Br)ccc32)n1", "result": "0.5 µM"}
{"smiles": "COc1cc(CN2C=c3c(c4c([nH]c3=O)=NC(=N)N=C4N)C2)cc(OC)c1OC", "result": "3.1 µM"}

Neighbouring rows are from separate reports. a–b is a range or a potency band.